PMC7179434, “1,2,4-Triazolo[1,5-a]pyrimidines as a Novel Class of Inhibitors of the HIV-1 Reverse Transcriptase-Associated Ribonuclease H Activity” (Molecules, 2020)

What was measured:
[1] = Intrinsic fluorescence under RNase H assay conditions; conditions: excitation/emission 490/528 nm, RNase H reaction mixture
[2] = Mg2+ coordination analysis by UV-Vis spectra; type: physicochemical; conditions: 100 µM compound, absence and presence of 6 mM MgCl2

SMILES | intrinsic fluorescence [1] | Mg2+ chelation ability (shift of absorbance maximum) [2]
Cc1cc(-c2ccccc2)n2nc(NC(=O)c3ccc(O)c(O)c3)nc2n1 [Compound 12g, 3,4-Dihydroxy-N-(5-methyl-7-phenyl-[1,2,4]triazolo[1,5-a]pyrimidin-2-yl)benzamide] | no significant fluorescence | none of the TZP derivatives displayed chelation ability
Cc1cc(-c2ccccc2)nc2nc(NC(=O)c3ccc(O)c(O)c3)nn12 [Compound 13g, 3,4-Dihydroxy-N-(7-methyl-5-phenyl-[1,2,4]triazolo[1,5-a]pyrimidin-2-yl)benzamide] | no significant fluorescence | none of the TZP derivatives displayed chelation ability
Cc1cc(C)n2nc(NC(=O)c3ccc(O)c(O)c3)nc2n1 [Compound 14g, N-(5,7-Dimethyl-[1,2,4]triazolo[1,5-a]pyrimidin-2-yl)-3,4-dihydroxybenzamide] | no significant fluorescence | none of the TZP derivatives displayed chelation ability
O=C(Nc1nc2nc(-c3ccccc3)cc(-c3ccccc3)n2n1)c1ccc(O)c(O)c1 [Compound 15g, N-(5,7-diphenyl-[1,2,4]triazolo[1,5-a]pyrimidin-2-yl)-3,4-dihydroxybenzamide] | no significant fluorescence | none of the TZP derivatives displayed chelation ability
COc1ccc(-c2cc(C)nc3nc(N(C(=O)c4ccccc4)C(=O)c4ccccc4)nn23)cc1OC [Compound 16hh, N-benzoyl-N-(7-(3,4-dimethoxyphenyl)-5-methyl-[1,2,4]triazolo[1,5-a]pyrimidin-2-yl)benzamide] |  | none of the TZP derivatives displayed chelation ability
Cc1cc(-c2ccc(O)c(O)c2)n2nc(NC(=O)c3ccccc3)nc2n1 [Compound 17h, N-(7-(3,4-dihydroxyphenyl)-5-methyl-[1,2,4]triazolo[1,5-a]pyrimidin-2-yl)benzamide] | no significant fluorescence | none of the TZP derivatives displayed chelation ability
Cc1cc(-c2ccccc2)n2nc(C(=O)Nc3ccc(O)c(O)c3)nc2n1 [Compound 18g, N-(3,4-Dihydroxyphenyl)-5-methyl-7-phenyl-[1,2,4]triazolo[1,5-a]pyrimidine-2-carboxamide] | no significant fluorescence | none of the TZP derivatives displayed chelation ability

Some entries repeat one wording, which the source may state once for all of them.
